Anti-infective test results gathered from many reports (values: NIAID ChemDB through PubChem).

All rows: growth or infection tests; agent: Mycobacterium abscessus

ECn is the concentration giving n% inhibition of infection, replication or growth. An empty or dashed field is not shown. MIC50, MIC90 and the like: level of inhibition, or share of isolates inhibited. Zone: diameter of growth inhibition. Lines come from different laboratories, so protocols vary.

SMILES,strain,mutations,read by,conditions,measure,dose,result
CCCCCCCCCCCCCCCCCCCCC(=O)NC(C)(CCC(=O)O)CCC(=O)O,AAy-P-1,,,,MIC,,6.8 µg/mL
CCN1CCc2c(sc(NC(=O)c3c(F)c(F)c(F)c(F)c3F)c2C(=O)NC)C1,bolletii 103,,resazurin / turbidity,,EC50,,>100 µM
Cc1ccn2c(C(=O)NCc3ccc(N4CCCN(c5ccc(C(F)(F)F)cc5)CC4)c(F)c3)c(C)nc2c1,Clinical isolate,,luminescence,clinical isolate,MIC50,,>10 µg/mL
C[C@H](O)[C@H]1C(=O)N2C(C(=O)O)=C(S[C@@H]3CN[C@H](C(=O)N(C)C)C3)[C@H](C)[C@H]12,,,broth dilution / visual reading,,MIC90,,>64 µg/mL
CCOC(=O)c1c(NC(=O)c2c(F)c(F)c(F)c(F)c2F)sc2c1CCNC2,,,turbidity,,EC50,,1.1 µM
COc1cc(CC(=O)CO)c(C=O)c(O)c1C,,,visual reading,,EC50,,100 µg/mL
CCNC(=O)c1c(NC(=O)c2c(F)c(F)c(F)c(F)c2F)sc2c1CCN(CC)C2,bolletii 103,,resazurin / turbidity,,MIC,,>200 µM
CCCCCCCN(CCCCCCC)C(=O)NC(CCC(=O)O)(CCC(=O)O)CCC(=O)O,AAy-P-1,,,,MIC,,36 µg/mL
CC[C@H]1OC(=O)[C@H](C)[C@@H](O[C@H]2C[C@@](C)(OC)[C@@H](O)[C@H](C)O2)[C@H](C)[C@@H](O[C@@H]2O[C@H](C)C[C@H](N(C)C)[C@H]2O)[C@](C)(O)C[C@@H](C)CN(C)[C@H](C)[C@@H](O)[C@]1(C)O,Clinical isolate MR313292,,broth dilution / visual reading,,MIC100,,8 µg/mL
CCCCCCCC(CCCCCCC)OC(=O)NC(CCC(=O)O)(CCC(=O)O)CCC(=O)O,AAy-P-1,,,,MIC,,216 µg/mL
NCC[C@H](O)C(=O)N[C@@H]1C[C@H](N)[C@@H](O[C@H]2O[C@H](CN)[C@@H](O)[C@H](O)[C@H]2O)[C@H](O)[C@H]1O[C@H]1O[C@H](CO)[C@@H](O)[C@H](N)[C@H]1O,,,broth dilution,,MIC90,,32 µg/mL
O=c1cc(-c2ccccc2)c2ccc(Cl)cc2o1,ATCC 19977,,resazurin,,MIC90,,>100 µg/mL
C[C@H](O)[C@H]1C(=O)N2C(C(=O)O)=C(S[C@@H]3CN[C@H](C(=O)N(C)C)C3)[C@H](C)[C@H]12,ATCC 19977,,broth dilution / visual reading,,MIC90,,>64 µg/mL
CCCCCCCCCN(CCCCCCCCC)C(=O)NC(CCC(=O)O)(CCC(=O)O)CCC(=O)O,AAy-P-1,,,,MIC,,72 µg/mL
C[C@@H](O)[C@H]1C(=O)N2C(C(=O)O)=C(S[C@@H]3CCCN3C3CCOCC3)S[C@H]12,L948,,visual reading,,MIC,,4 µg/mL
Cc1c(C)c(C)[c-](C)c1C.N[C@@H](Cc1ccccc1)C(=O)[O-].[Cl][Ir+2],AAy-P-1,,,,MIC,,61 µg/mL
CCCCCCCCCCCCC(CCCCCCCCCCCC)OC(=O)NC(CCC(=O)O)(CCC(=O)O)CCC(=O)O,AAy-P-1,,,,MIC,,27 µg/mL
Cc1c(OCC(F)(F)F)ccnc1CSc1nc2ccccc2[nH]1,2005-0524,,resazurin,,MIC90,,>100 µM
CCCCCCCN1CCc2c(sc(NC(=O)c3c(F)c(F)c(F)c(F)c3F)c2C(=O)OCC)C1,,,turbidity,,MIC,,>100 µM
CC(C)N=c1cc2n(-c3ccc(Cl)cc3)c3ccccc3nc-2cc1Nc1ccc(Cl)cc1,CIP 104536,,broth dilution,,MIC,,0.5 µg/mL
CCCCCC1=NN(C(=O)CCOC(C)=O)OC(CCCCC)C1,Clinical Isolate 690,IMP CIP PEN resistant,agar diffusion,,zone,200 µg/disc,25 mm

Repeating the first 2 entries:

| SMILES | strain | mutations | read by | conditions | measure | dose | result |
|---|---|---|---|---|---|---|---|
| CCCCCCCCCCCCCCCCCCCCC(=O)NC(C)(CCC(=O)O)CCC(=O)O | AAy-P-1 |  |  |  | MIC |  | 6.8 µg/mL |
| CCN1CCc2c(sc(NC(=O)c3c(F)c(F)c(F)c(F)c3F)c2C(=O)NC)C1 | bolletii 103 |  | resazurin / turbidity |  | EC50 |  | >100 µM |